Values joined by “and” are separate entries in the source; they are usually repeats but may differ in a detail not shown here. Identical values can stand only once. This is a selection; strong and weak results do not stand in their true shares. Active and inactive are the calls of the source. The call rests on the fitted dose curve; in most records, active means well fitted inhibition curve with a large enough effect; inconclusive means small, poorly fitted or top-dose-only effect; inactive means flat fitted curve, though single readings scatter.
On the % scale 0 is the no-effect control and ±100 the full control effect.

The target of this assay is pyruvate kinase (Trypanosoma brucei) (UniProt Q57TT1). In words: qHTS of Trypanosoma Brucei Inhibitors. Further: nearly all actives have a fitted effect of over 50% in size. The note with it: TbPYK enzyme, Kinase-Glo Plus ATP luminescence, 45 min; at 76.8 µM (top of the series) unless noted.
`CCOP(=O)(Nc1cccc2ccccc12)OCC`: the activity, negative = inhibition is inactive: -27.1%.

`COc1cc(C2NCCC3(OCCO3)C2(C)C)cc(OC)c1OC` (stereo unspecified): the activity, negative = inhibition is inactive: -3.52%.

Regarding `CCCOP(=S)(Nc1nc(N)cc(=O)[nH]1)OCCC`, the activity, negative = inhibition was inactive: -4.02%.

In the case of `Cc1ccc(NCCc2c([N+](=O)[O-])cc([N+](=O)[O-])cc2[N+](=O)[O-])cc1`, the activity, negative = inhibition was inactive: -0.595%.

Turning to `Nc1cccc2c([As](=O)(O)O)cccc12`, the activity, negative = inhibition was inactive: -5.63%.

Turning to `O=[As](O)(c1cccc(O)c1)c1cccc(O)c1`, the activity, negative = inhibition is inactive: 21.5%.

`Cc1cccc(OCC(=O)OC2CN3CCC2CC3)c1` (stereo unspecified): the activity, negative = inhibition was inactive: -3%.

On to `CS(=O)(=O)c1ccc(Cl)c(NC(=O)COC(=O)C(O)(c2ccccc2)c2ccccc2)c1`, for which the activity, negative = inhibition is inactive: -9.47%.

`COc1cc(C(=O)NCC2(N3CCOCC3)CCCCC2)cc(Cl)c1OC(C)C`: the activity, negative = inhibition is inactive: -0.833%.

Turning to `O=[As](O)(O)c1cccnc1`, the activity, negative = inhibition was inactive: 3.74%.

Take `O=C(OC1CN2CCC1CC2)c1ccc(Cl)cc1` (stereo unspecified): the activity, negative = inhibition was inactive: 1.19%.

For the compound `CN(C)C(=O)c1cc([N+](=O)[O-])cc2c1-c1c(cc([N+](=O)[O-])cc1[N+](=O)[O-])C2=O`, the activity, negative = inhibition was inactive: -3.05%.

For `O=[N+]([O-])c1ccc2c(c1)nnn2O`, the activity, negative = inhibition was inactive: 1.1%.

As to `CN(C(=O)Cc1ccccc1)[C@@H]1CC[C@]2(CCCO2)C[C@H]1N1CCCC1`, the activity, negative = inhibition is inactive: 1.93%.

`CCOP1(=S)c2c(C)nn(CCC#N)c2N=C(c2ccc(F)cc2)N1C` (stereo unspecified): the activity, negative = inhibition is inactive: -6%.

`N#CCCN(C(=O)COC(=O)C(O)(c1ccccc1)c1ccccc1)c1ccc(F)cc1`: the activity, negative = inhibition was inactive: 0.225%.

Consider `NC(=O)Nc1ccc([As](=O)(O)O)cc1`, for which the activity, negative = inhibition was inactive: 2.46% and inactive: -1.55%.

With `Nc1ccccc1[As](=O)(O)c1ccccc1`, the activity, negative = inhibition was inactive: 5.49%.

Turning to `O=C(O)COc1ccc([As](=O)(O)O)cc1[N+](=O)[O-]`, the activity, negative = inhibition was inactive: 5.65%.

Take `O=P(Nc1nccs1)(Oc1ccccc1)Oc1ccccc1`: the activity, negative = inhibition was inactive: 2.24%.

As to `CCOP1(=S)c2c(C)nn(CCC#N)c2N=C(c2ccccc2F)N1C` (stereo unspecified), the activity, negative = inhibition is inactive: 1.24%.

As to `O=P1(Nc2ccc(Br)cn2)COc2ccccc2OC1`, the activity, negative = inhibition is inactive: 0.681%.

Regarding `NS(=O)(=O)c1cccc(NC(=O)COC(=O)C(O)(c2ccccc2)c2ccccc2)c1`, the activity, negative = inhibition was inactive: -9.08%.

Regarding `Cc1ccc(OCC(=O)OC2CN3CCC2CC3)cc1` (stereo unspecified), the activity, negative = inhibition was inactive: 5.81%.

With `O=[As](O)(c1cccs1)c1cccs1`, the activity, negative = inhibition was inactive: -0.492%.

Turning to `Nc1cccc([As](=O)(O)c2ccccc2)c1`, the activity, negative = inhibition was inactive: -2.19%.

`O=P1(Nc2ncccn2)COc2ccccc2OC1`: the activity, negative = inhibition was inactive: 2.43%.

Regarding `Cc1ccc(S(=O)(=O)N(CCCN)CCCc2c(C)nc(N)[nH]c2=O)cc1`, the activity, negative = inhibition was inactive: 7.78%.

`CCCC1OP(=O)(Nc2ccccc2)OCC1CC` (stereo unspecified): the activity, negative = inhibition is inactive: -5.54%.

As for `O=C(/C=C/c1ccccc1)OC1CN2CCC1CC2` (stereo unspecified), the activity, negative = inhibition is inactive: -5.61%.

In the case of `CN(C)C1(CNC(=O)c2ccc(S(C)(=O)=O)cc2)CCCCC1`, the activity, negative = inhibition was inactive: -6.05%.

Turning to `CC1CCC(C(C)C)C(OP(=O)(Nc2ccccn2)c2ccccc2)C1` (stereo unspecified), the activity, negative = inhibition was inactive: 3.51%.

For the compound `Cc1ccc(C(=O)OC2CN3CCC2CC3)cc1` (stereo unspecified), the activity, negative = inhibition is inactive: 5.19%.

As for `Cc1nn(-c2ccccc2)c2c1P(=O)(N1CCOCC1)N(C)C(c1ccccc1)=N2` (stereo unspecified), the activity, negative = inhibition was inactive: -1.61%.

As to `CC1(CBr)Cn2c(nc3ccccc3c2=O)S1` (stereo unspecified), the activity, negative = inhibition was inactive: 1.59%.

In the case of `CC(C)/C=N\N=C(\N)N[N+](=O)[O-]`, the activity, negative = inhibition was inactive: -3.85%.

With `COc1ccccc1CNC(=O)COC(=O)C(O)(c1ccccc1)c1ccccc1`, the activity, negative = inhibition was inactive: 4.42%.

Consider `CC(C)(C)C(=O)NC(Sc1ncccn1)C(Cl)(Cl)Cl` (stereo unspecified), for which the activity, negative = inhibition was inactive: 1.2%.

Consider `O=P1(N(CCCl)CCCl)NCCC(C(F)(F)F)O1` (stereo unspecified), for which the activity, negative = inhibition is inactive: -0.327%.

On to `CN(CCCl)Cc1cc(Cl)c(NC2=NCCN2)c(Cl)c1`, for which the activity, negative = inhibition is inactive: 5.94%.

As for `CCOP(=O)(Nc1ccc(C)cn1)OCC`, the activity, negative = inhibition was inactive: 4.98%.

Regarding `CCOP(=O)(NC(=NC(C)c1ccccc1)NC(C)c1ccccc1)OCC` (stereo unspecified), the activity, negative = inhibition was inactive: -7.61%.

Regarding `O=P1(Nc2ccccn2)COc2ccccc2OC1`, the activity, negative = inhibition was inactive: -7.75%.

As to `CCC1=CC2Cc3nc4ccc(Cl)cc4c(N)c3C(C1)C2` (stereo unspecified), the activity, negative = inhibition is inactive: -6.23%.

`CCC(C)N(CC(C)C)C(=S)SC(NC(C)=O)C(Cl)(Cl)Cl` (stereo unspecified): the activity, negative = inhibition is inactive: -14%.

As for `CCOC(=O)c1ccc(NC(=O)C(C)(CCl)SC)cc1` (stereo unspecified), the activity, negative = inhibition is inactive: 1.3%.

As for `CSc1ccc(Nc2c([N+](=O)[O-])cc([N+](=O)[O-])cc2[N+](=O)[O-])cc1`, the activity, negative = inhibition was inactive: -9.4%.

For the compound `O=C(OC1CN2CCC1CC2)c1cccc([N+](=O)[O-])c1` (stereo unspecified), the activity, negative = inhibition was inactive: 4.39%.

On to `O=C(Nc1ccncc1[N+](=O)[O-])c1ccc([N+](=O)[O-])cc1[N+](=O)[O-]`, for which the activity, negative = inhibition was inactive: -1.29%.

Turning to `O=C(COc1ccccc1)OC1CN2CCC1CC2` (stereo unspecified), the activity, negative = inhibition was inactive: 1.33%.

For `O=C(O)C(=O)c1ccc(N(CCCl)CCCl)cc1`, the activity, negative = inhibition is inactive: -12.7%.

Regarding `COC(=O)C1(C)COP(=O)(N2CCCC2)OC1` (stereo unspecified), the activity, negative = inhibition is inactive: 0.0613%.

With `COP1(=S)c2c(C)nn(CCC#N)c2N=C(c2ccc(F)cc2)N1C` (stereo unspecified), the activity, negative = inhibition was inactive: -3.98%.

For `O=[N+]([O-])c1ccc(Nc2ccc(Oc3ccc([N+](=O)[O-])cc3[N+](=O)[O-])cc2)c([N+](=O)[O-])c1`, the activity, negative = inhibition was inactive: -5.11%.

Regarding `O=P(Nc1ccccn1)(c1cccc2ccccc12)c1cccc2ccccc12`, the activity, negative = inhibition was inactive: -4.66%.

For `Cc1cc(SC(NC=O)C(Cl)(Cl)Cl)ncn1` (stereo unspecified), the activity, negative = inhibition is inactive: -19.7%.

In the case of `CCOC(=O)Nc1cccc([As](=O)(O)O)c1`, the activity, negative = inhibition was inactive: -14.2%.

For `CCCCOc1ccc(C(=O)NCC2(N3CCCCC3)CCCCC2)cc1OC`, the activity, negative = inhibition is inactive: -1.48%.

As for `COP(=O)(OC)N1CC1c1ccccc1` (stereo unspecified), the activity, negative = inhibition is inactive: 4.35%.

For the compound `CC1CCNP(=O)(N(CCCl)CCCl)O1` (stereo unspecified), the activity, negative = inhibition is inactive: 2.16%.

Consider `CCOC(=O)Nc1ccc([As](=O)(O)O)c(O)c1`, for which the activity, negative = inhibition is inactive: 6.21%.

Regarding `O=C(O)C(O)c1ccc(N(CCCl)CCCl)cc1` (stereo unspecified), the activity, negative = inhibition is inactive: -6.49%.

Regarding `O=[N+]([O-])c1cc([N+](=O)[O-])c(-c2ccn[nH]2)s1`, the activity, negative = inhibition is inactive: -0.151%.

On to `O=C(OC1CN2CCC1CC2)c1cccc2[nH]cnc12` (stereo unspecified), for which the activity, negative = inhibition was inactive: 0.493%.

Regarding `CC(C)NC(=O)NP(=O)(Oc1ccccc1)Oc1ccccc1`, the activity, negative = inhibition is inactive: -14.6%.

For the compound `CC(C)c1ccc(OP(=O)(Nc2ccccn2)Oc2ccccc2F)cc1` (stereo unspecified), the activity, negative = inhibition was inactive: -0.619%.

Regarding `COC(=O)C1(C)COP(=O)(N2CCCCCC2)OC1` (stereo unspecified), the activity, negative = inhibition is inactive: -7.96%.

For the compound `ClCCSc1nnc(-c2cccnc2)o1`, the activity, negative = inhibition is inactive: 3.24%.

As to `Cc1ccc2nc3c(c(C)c2c1)CC(C(Cl)Cl)S3` (stereo unspecified), the activity, negative = inhibition is inactive: -17%.

Regarding `[N-]=[N+]=NC1CCCCC1NC(=O)c1cc([N+](=O)[O-])cc([N+](=O)[O-])c1` (stereo unspecified), the activity, negative = inhibition was inactive: 3.05%.

In the case of `Cc1ccc(OP(=O)(Nc2ccc([N+](=O)[O-])cn2)Oc2ccc(C)cc2)cc1`, the activity, negative = inhibition was inactive: 0.603%.

Consider `COc1cc(C(=O)NCC2(N3CCOCC3)CCCCC2)ccc1OCC(C)C`, for which the activity, negative = inhibition was inactive: -7.26%.

Take `O=[N+]([O-])c1ccc(-c2cc([N+](=O)[O-])c(O)c([N+](=O)[O-])c2)cc1`: the activity, negative = inhibition is inactive: -14%.

Regarding `O=[As](O)(c1ccc(O)cc1)c1ccccc1O`, the activity, negative = inhibition is inactive: 24.8%.

Take `C[As](=O)(O)c1cccc(C(=O)O)c1`: the activity, negative = inhibition is inactive: 2.03%.

In the case of `COc1ccc(N/C(=N/P(=O)(N2CCOCC2)N2CCOCC2)N2CCOCC2)cc1`, the activity, negative = inhibition was inactive: 0.364%.

On to `O=[N+]([O-])c1cc(Oc2ccc([N+](=O)[O-])cc2C(F)(F)F)cc([N+](=O)[O-])c1`, for which the activity, negative = inhibition was inactive: 4.62%.

For `COc1cc(I)ccc1[As](=O)(O)O`, the activity, negative = inhibition was inactive: -8.85%.

Take `COc1ccc2nc(NP(=O)(c3ccccc3)c3ccccc3)sc2c1`: the activity, negative = inhibition is inactive: -4.35%.

As for `O=P1(N(CCCl)CCCl)Nc2ccccc2N1`, the activity, negative = inhibition was inactive: -0.437%.

Turning to `O=P1(N(CCCl)CCCl)OCCCN1CCCl` (stereo unspecified), the activity, negative = inhibition was inactive: 3.71%.

As to `Cc1cc(=O)[nH]c(N[N+](=O)[O-])n1`, the activity, negative = inhibition was inactive: -5.62%.

Take `O=C(OC1CN2CCC1CC2)C12CC3CC(CC(C3)C1)C2` (stereo unspecified): the activity, negative = inhibition was inactive: 0.686%.

Consider `Cc1c2c(nc3ccccc13)SC(C(Cl)Cl)C2` (stereo unspecified), for which the activity, negative = inhibition was inactive: -5.47%.

With `O=[N+]([O-])C1C(O)C(O)C([N+](=O)[O-])C(O)C1O` (stereo unspecified), the activity, negative = inhibition is inactive: -4.11%.

With `CC(C)CC(=O)NC(Sc1ccc(Cl)cc1)C(Cl)(Cl)Cl` (stereo unspecified), the activity, negative = inhibition is inactive: -1.94%.

Regarding `Nc1cc(N)c2nonc2c1[N+](=O)[O-]`, the activity, negative = inhibition was inactive: -13.5%.

On to `O=C(NC(Sc1ccncn1)C(Cl)(Cl)Cl)c1ccccc1` (stereo unspecified), for which the activity, negative = inhibition was inactive: 0.542%.

Take `Oc1ccccc1CNc1ccccn1`: the activity, negative = inhibition was inactive: -6.95%.

With `Cc1ccc(OP(=O)(Nc2nccs2)Oc2ccc(C)cc2)cc1`, the activity, negative = inhibition was inactive: -2.42%.

As for `COc1ccccc1OP(=O)(Nc1ccc(C)cn1)Oc1ccccc1OC`, the activity, negative = inhibition was inactive: 3.66%.

Turning to `Clc1ccc(Cl)c(NC2=NCC(CBr)S2)c1` (stereo unspecified), the activity, negative = inhibition is inactive: -3.94%.

As to `CN1CCCC(OC(=O)C(c2ccccc2)c2ccccc2)C1` (stereo unspecified), the activity, negative = inhibition is inactive: 1.17%.

`NC(=O)c1cc([N+](=O)[O-])cc([N+](=O)[O-])c1N`: the activity, negative = inhibition is inactive: -4.05%.

Take `Cc1ccc(N/C(=N/P(=O)(N2CCOCC2)N2CCOCC2)N2CCOCC2)cc1`: the activity, negative = inhibition is inactive: -18.7%.

As to `CCN(N=Nc1nonc1N)c1nonc1N`, the activity, negative = inhibition was inactive: -0.0313%.

As to `Nc1cccc2ccc([As](=O)(O)O)cc12`, the activity, negative = inhibition was inactive: -12.3%.

Take `Cc1ccc(NP(=O)(Oc2ccccc2F)Oc2ccccc2F)nc1`: the activity, negative = inhibition was inactive: -0.612%.

Take `CCOP(=O)(Nc1ccccc1)OCC`: the activity, negative = inhibition was inactive: -10.4%.

On to `CCCC1OP(N)(=O)OCC1CC` (stereo unspecified), for which the activity, negative = inhibition was inactive: 10.1%.

Regarding `O=C(O)c1ccccc1[As](=O)(O)O`, the activity, negative = inhibition was inactive: 2.42%.

These data come from PubChem BioAssay AID624173 (National Center for Advancing Translational Sciences (NCATS), 2012).
